In patent US20170253607A1 one finds IC50 data, which are given here for 42 compounds.

The target in this test is HIV-1 PR (Human immunodeficiency virus type 1 group M subtype B, UniProt P04585). Briefly: HIV-protease inhibitory activity assay (FRET peptide substrate). The test is classed as biochemical. The following applies: Test Example 1.
Usually IC50 stands for the concentration that gives 50% inhibition. Higher therefore signals lower potency. As to `CC(C)CN(C[C@@H](O)[C@H](Cc1ccc(OCc2ccc(-c3ccccc3)cc2C(=O)O)cc1)NC(=O)O[C@H]1CO[C@@]2(C)OCC[C@@H]12)S(=O)(=O)c1ccc2ncsc2c1`, the IC50 is 1.28 nM.
The value for `COc1ccc(S(=O)(=O)N(CC(C)C)C[C@@H](O)[C@H](Cc2ccc(N(C)Cc3ccc(C(F)(F)F)cc3C(=O)Nc3sc4c(c3C(=O)O)CC(C)(C)CC4)cc2)NC(=O)O[C@H]2CO[C@@]3(C)OCC[C@@H]23)cc1` was 6.24 nM; that for `COc1ccc(S(=O)(=O)N(CC(C)C)C[C@@H](O)[C@H](Cc2ccc(OCc3ccccc3-c3sc4c(c3C(=O)O)CCC(F)(F)C4)cc2)NC(=O)O[C@H]2CO[C@@]3(C)OCC[C@@H]23)cc1` was 0.89 nM.
The value for `COc1ccc(S(=O)(=O)N(CC(C)C)C[C@@H](O)[C@H](Cc2ccc(NC[C@H]3CCCC[C@@H]3c3sc4c(c3C(=O)O)CC(C)(C)CC4)cc2)NC(=O)O[C@H]2CO[C@@]3(C)OCC[C@@H]23)cc1` was 2.92 nM; that for `COc1ccc(S(=O)(=O)N(CC(C)C)C[C@@H](O)[C@H](Cc2ccc(OCc3ccc4cc(-c5sc6c(c5C(=O)O)CCC(C)(C)C6)ccc4c3)cc2)NC(=O)O[C@H]2CO[C@@]3(C)OCC[C@@H]23)cc1` was 7.42 nM.
The value for `COc1ccc(S(=O)(=O)N(CC(C)C)C[C@@H](O)[C@H](Cc2ccc(CNC(=O)c3cc(Cl)cc(Cl)c3O)cc2)NC(=O)O[C@H]2CO[C@@]3(C)OCC[C@@H]23)cc1` was 1.69 nM; that for `COc1ccc(S(=O)(=O)N(CC(C)C)C[C@@H](O)[C@H](Cc2ccc(OCc3ccccc3-c3cc(C(=O)O)cs3)cc2)NC(=O)O[C@H]2CO[C@@]3(C)OCC[C@@H]23)cc1` was 0.76 nM.
For `COc1ccc(S(=O)(=O)N(CC(C)C)C[C@@H](O)[C@H](Cc2ccc(OCc3ccccc3-c3sc4c(c3C(=O)O)CC(C)(C)CC4O)cc2)NC(=O)O[C@H]2CO[C@@]3(C)OCC[C@@H]23)cc1` (stereo partly drawn), the IC50 is 1 nM.
The value for `COC(=O)N[C@H](C(=O)NC(Cc1ccc(-c2sc3c(c2C(=O)OC(C)(C)C)CC(C)(C)CC3)cc1)[C@@H](O)C[C@@H](Cc1ccccc1F)C(=O)N[C@H]1c2cc(F)cc(Cl)c2OC[C@H]1O)C(C)(C)C` (stereo partly drawn) was 6.83 nM; that for `COc1ccc(S(=O)(=O)N(CC(C)C)C[C@@H](O)[C@H](Cc2ccc(N(C)Cc3ccccc3-c3ccc(Nc4sc5c(c4C(=O)O)CC(C)(C)CC5)cc3)cc2)NC(=O)O[C@H]2CO[C@@]3(C)OCC[C@@H]23)cc1` was 51 nM; that for `COc1ccc(S(=O)(=O)N(CC(C)C)C[C@@H](O)[C@H](Cc2ccc(NC[C@H]3CCCCN3C(=O)Nc3sc4c(c3C(=O)O)CC(C)(C)CC4)cc2)NC(=O)O[C@H]2CO[C@@]3(C)OCC[C@@H]23)cc1` was 2.11 nM.
The value for `COc1ccc(S(=O)(=O)N(CC(C)C)C[C@@H](O)[C@H](Cc2ccc(OCC3CCCCC3c3sc4c(c3C(=O)O)CC(C)(C)CC4)cc2)NC(=O)O[C@H]2CO[C@@]3(C)OCC[C@@H]23)cc1` (single isomer, unassigned) [I-10-1] was 5.17 nM; that for `COc1ccc(S(=O)(=O)N(CC(C)C)C[C@@H](O)[C@H](Cc2ccc(OC[C@H]3COCC[C@H]3c3sc4c(c3C(=O)O)CC(C)(C)CC4)cc2)NC(=O)O[C@H]2CO[C@@]3(C)OCC[C@@H]23)cc1` was 1.86 nM; that for `COc1ccc(S(=O)(=O)N(CC(C)C)C[C@@H](O)[C@H](Cc2ccc(N(C)Cc3cccc4c(-c5sc6c(c5C(=O)O)CC(C)(C)CC6)cccc34)cc2)NC(=O)O[C@H]2CO[C@@]3(C)OCC[C@@H]23)cc1` was 12.1 nM.
The value for `COc1ccc(S(=O)(=O)N(CC(C)C)C[C@@H](O)[C@H](Cc2ccc(OCc3ccccc3-c3sc4c(c3C(=O)O)C(C)(C)CC4)cc2)NC(=O)O[C@H]2CO[C@@]3(C)OCC[C@@H]23)cc1` was 1.88 nM; that for `CC(C)CN(C[C@@H](O)[C@H](Cc1ccccc1)NC(=O)O[C@H]1CO[C@@]2(C)OCC[C@@H]12)S(=O)(=O)c1ccc2nc(NCc3cccc(-c4sc5c(c4C(=O)O)CC(C)(C)CC5)c3)sc2c1` was 2.22 nM; that for `COc1ccc(S(=O)(=O)N(CC(C)C)C[C@@H](O)[C@H](Cc2ccc(NCc3cc(-c4ccsc4)ccc3-c3sc4c(c3C(=O)O)CC(C)(C)CC4)cc2)NC(=O)O[C@H]2CO[C@@]3(C)OCC[C@@H]23)cc1` was 2.17 nM.
Regarding `CC(C)CN(C[C@@H](O)[C@H](Cc1ccc(OCc2ccc3ccccc3c2C(=O)O)cc1)NC(=O)O[C@H]1CO[C@@]2(C)OCC[C@@H]12)S(=O)(=O)c1ccc2ncsc2c1`, the concentration for half-maximal inhibition (IC50) was found to be 0.88 nM.
As for `CC(C)CN(C[C@@H](O)[C@H](Cc1ccccc1)NC(=O)O[C@H]1CO[C@@]2(C)OCC[C@@H]12)S(=O)(=O)c1ccc(NCc2ccccc2-c2sc3c(c2C(=O)O)CC(C)(C)CC3)cc1`, the IC50 was found to be 1.22 nM.
`COc1ccc(S(=O)(=O)N(CC(C)C)C[C@@H](O)[C@H](Cc2ccc(OCC3CCCC3c3sc4c(c3C(=O)O)CC(C)(C)CC4)cc2)NC(=O)O[C@H]2CO[C@@]3(C)OCC[C@@H]23)cc1` (single isomer, unassigned) [I-9-2] yielded an IC50 of 1.56 nM.
The value for `CC(C)CN(C[C@@H](O)[C@H](Cc1ccc(OCc2ccccc2-c2sc3c(c2C(=O)O)CC(C)(C)CC3)cc1)NC(=O)O[C@H]1CO[C@@]2(C)OCC[C@@H]12)S(=O)(=O)c1ccc2nc(N(C)C3CCCCC3)sc2c1` was 0.73 nM; that for `CC(C)CN(C[C@@H](O)[C@H](Cc1ccccc1)NC(=O)O[C@H]1CO[C@@]2(C)OCC[C@@H]12)S(=O)(=O)c1ccc(NCc2ccc(-c3sc4c(c3C(=O)O)CC(C)(C)CC4)cc2)cc1` was 1.69 nM.
The value for `COc1ccc(S(=O)(=O)N(CC(C)C)C[C@@H](O)[C@H](Cc2ccc(NC3CN(c4ccc(-c5sc6c(c5C(=O)O)CC(C)(C)CC6)cc4)C3)cc2)NC(=O)O[C@H]2CO[C@@]3(C)OCC[C@@H]23)cc1` was 5.49 nM; that for `COc1ccc(S(=O)(=O)N(CC(C)C)C[C@@H](O)[C@H](Cc2ccc(NCc3ccc(N4CCCCC4=O)cc3-c3sc4c(c3C(=O)O)CC(C)(C)CC4)cc2)NC(=O)O[C@H]2CO[C@@]3(C)OCC[C@@H]23)cc1` was 2.07 nM; that for `COc1ccc(S(=O)(=O)N(CC(C)C)C[C@@H](O)[C@H](Cc2ccc(NC[C@H]3COCC[C@H]3c3sc4c(c3C(=O)O)CC(C)(C)CC4)cc2)NC(=O)O[C@H]2CO[C@@]3(C)OCC[C@@H]23)cc1` was 1.67 nM.
The value for `COc1ccc(S(=O)(=O)N(CC(C)C)C[C@@H](O)[C@H](Cc2ccc(OCCn3ccn4cc(C(=O)NCc5ccc(F)cc5F)c(=O)c(O)c4c3=O)cc2)NC(=O)O[C@H]2CO[C@@]3(C)OCC[C@@H]23)cc1` was 11.6 nM.
As for `COc1ccc(S(=O)(=O)N(CC(C)C)C[C@@H](O)[C@H](Cc2ccccc2)NC(=O)O[C@H]2CO[C@@]3(CNCc4ccc(-c5sc6c(c5C(=O)O)CC(C)(C)CC6)cc4)OCC[C@@H]23)cc1`, the IC50 amounted to 1.97 nM.
`COc1ccc(S(=O)(=O)N(CC(C)C)C[C@@H](O)[C@H](Cc2ccc(OCc3ccccc3-c3ccc4c(C(=O)O)c(C5=CCC(C)(C)CC5)sc4c3)cc2)NC(=O)O[C@H]2CO[C@@]3(C)OCC[C@@H]23)cc1` showed an IC50 of 3.14 nM.
Compound `COc1ccc(S(=O)(=O)N(CC(C)C)C[C@@H](O)[C@H](Cc2ccc(Cn3c(=O)c4c5c(sc4c4ccccc43)CCC(C)(C)C5)cc2)NC(=O)O[C@H]2CO[C@@]3(C)OCC[C@@H]23)cc1` returned an IC50 of 6.34 nM.
In the case of `COc1ccc(S(=O)(=O)N(CC(C)C)C[C@@H](O)[C@H](Cc2ccc(OCc3ccccc3-c3c(O)c4ccccc4oc3=O)cc2)NC(=O)O[C@H]2CO[C@H]3OCC[C@H]32)cc1` it was 1.06 nM; in that of `COc1ccc(S(=O)(=O)N(CC(C)C)C[C@@H](O)[C@H](Cc2ccc(NC[C@H]3CCCC[C@H]3NC(=O)c3sc4c(c3C(=O)O)CC(C)(C)CC4)cc2)NC(=O)O[C@H]2CO[C@@]3(C)OCC[C@@H]23)cc1`, 1.9 nM; in that of `COc1ccc(S(=O)(=O)N(CC(C)C)C[C@@H](O)[C@H](Cc2ccc(OCc3ccccc3-c3sc4c(c3C(=O)O)CC3(CC4)OCCO3)cc2)NC(=O)O[C@H]2CO[C@@]3(C)OCC[C@@H]23)cc1`, 0.87 nM.
In the case of `COc1ccc(S(=O)(=O)N(CC(C)C)C[C@@H](O)[C@H](Cc2ccc(OCc3ccccc3-c3sc4c(c3C(=O)O)CCCCCC4)cc2)NC(=O)O[C@H]2CO[C@@]3(C)OCC[C@@H]23)cc1` it was 0.87 nM; in that of `COc1ccc(S(=O)(=O)N(CC(C)C)C[C@@H](O)[C@H](Cc2ccc(OCc3ccccc3C3=C(C(=O)O)CCC3Cc3ccccc3)cc2)NC(=O)O[C@H]2CO[C@@]3(C)OCC[C@@H]23)cc1` (stereo partly drawn), 2.29 nM; in that of `COc1ccc(S(=O)(=O)N(CC(C)C)C[C@@H](O)[C@H](Cc2ccc(OCc3ccccc3-c3sc4c(c3C(=O)O)CC(=O)CC4)cc2)NC(=O)O[C@H]2CO[C@@]3(C)OCC[C@@H]23)cc1`, 0.75 nM.
In turn, `COc1ccc(S(=O)(=O)N(CC(C)C)C[C@@H](O)[C@H](Cc2ccccc2)NC(=O)O[C@H]2CO[C@@]3(CNCc4sc5c(c4C(=O)O)CC(C)(C)CC5)OCC[C@@H]23)cc1` registered an IC50 of 0.72 nM.
Consider `CC(C)CN(C[C@@H](O)[C@H](Cc1ccccc1)NC(=O)O[C@H]1CO[C@@]2(C)OCC[C@@H]12)S(=O)(=O)c1ccc(NCc2ccc(-c3sc4c(c3C(=O)O)CC(C)(C)CC4)c(F)c2)cc1`, for which the IC50 worked out at 3.53 nM.
The value for `COc1ccc(S(=O)(=O)N(CC(C)C)C[C@@H](O)[C@H](Cc2ccc(OCCOc3ccc(-c4sc5c(c4C(=O)O)CC(C)(C)CC5)c(C)c3)cc2)NC(=O)O[C@H]2CO[C@@]3(C)OCC[C@@H]23)cc1` was 2.14 nM; that for `COc1ccc(S(=O)(=O)N(CC(C)C)C[C@@H](O)[C@H](Cc2ccc(OCc3ccc(-c4ccc(F)cc4F)cc3-c3nnn(C(C)(C)C)n3)cc2)NC(=O)O[C@H]2CO[C@@]3(C)OCC[C@@H]23)cc1` was 3.38 nM.
In the case of `COc1ccc(S(=O)(=O)N(CC(C)C)C[C@@H](O)[C@H](Cc2ccc(NC[C@@H]3CCCC[C@@H]3c3sc4c(c3C(=O)O)CC(C)(C)CC4)cc2)NC(=O)O[C@H]2CO[C@H]3OCC[C@H]32)cc1` it was 2.57 nM.
In the case of `CC1(C)CCc2sc(-c3cccc(CNC(=O)OC[C@]45OCC[C@H]4[C@@H](OC(=O)N[C@@H](Cc4ccccc4)[C@H](O)CN(CC(F)F)S(=O)(=O)c4ccc6ncsc6c4)CO5)c3)c(C(=O)O)c2C1` it was 2.46 nM.
`COc1ccc(S(=O)(=O)N(CC(C)C)C[C@@H](O)[C@H](Cc2ccc(OCc3ccccc3-c3sc4c(c3C(=O)O)Cc3ccccc3-4)cc2)NC(=O)O[C@H]2CO[C@@]3(C)OCC[C@@H]23)cc1` showed an IC50 of 1.02 nM.
